Share of PSTVd loop 15 variants by leaf site

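Three N. benthamiana plants were inoculated with the whole mutant pool. Samples came from the inoculated region at 5 days, the leaf margin at 10 and upper systemic leaves at 12.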

PSTVd intermediate strain, loop 15: wild type GGAAACCGCUACUAC, pool pattern GGAAACCGNNNNNNC; upper and lower strand joined, each 5' to 3', the first 7 letters being the upper strand, closing pairs included.

Values are reads per thousand in the sample; higher means more abundant, 0 means not found. Each site shows the three plants. "Pool" is the share in the plasmid pool used as inoculum, on the same scale. The inoculated region was read from the minus strand, the other sites from the plus strand. For reference, wild type rose from 33.9 per thousand in the pool to 202, 200, 159 (inoculated region), 724, 746, 710 (leaf margin) and 856, 883, 880 (systemic leaves).

GGAAACCGAGUGGUC (pool 0.192) gave inoculated region 0.0164 / 0.145 / 0.152; leaf margin 0 / 0.0223 / 0; systemic leaves 0 / 0 / 0. For GGAAACCGGAUUCGC (pool 0.208) the result was inoculated region 0.0164 / 0.129 / 0.0762; leaf margin 0 / 0 / 0.0200; systemic leaves 0 / 0 / 0. With GGAAACCGACCAUUC (pool 0.240) the assay gave inoculated region 0.360 / 0.402 / 0.381; leaf margin 0.129 / 0.0891 / 0.100; systemic leaves 0 / 0 / 0.0228. GGAAACCGCGUGCCC (pool 0.320) read inoculated region 0.0655 / 0.0803 / 0.0952; leaf margin 0 / 0.0223 / 0; systemic leaves 0 / 0 / 0. With GGAAACCGCACAGAC (pool 0.208) the assay gave inoculated region 0.115 / 0.0482 / 0.0762; leaf margin 0 / 0 / 0; systemic leaves 0 / 0 / 0.

For GGAAACCGUAAACAC (pool 0.224) the result was inoculated region 0.459 / 0.241 / 0.286; leaf margin 0.129 / 0.134 / 0.140; systemic leaves 0.0644 / 0.0756 / 0.114. For GGAAACCGGGAGGUC (pool 0.240) the result was inoculated region 0.0819 / 0.145 / 0.0571; leaf margin 0 / 0.0223 / 0; systemic leaves 0 / 0 / 0. GGAAACCGAGAUGUC (pool 0.240) gave inoculated region 0.475 / 0.321 / 0.248; leaf margin 0 / 0 / 0.0200; systemic leaves 0 / 0 / 0. GGAAACCGGAACCUC (pool 0.208) read inoculated region 0.0983 / 0.129 / 0.0952; leaf margin 0 / 0 / 0.0401; systemic leaves 0 / 0 / 0. GGAAACCGUUACGAC (pool 0.256) read inoculated region 0.262 / 0.321 / 0.286; leaf margin 0.113 / 0.0223 / 0.160; systemic leaves 0.0644 / 0 / 0.

For GGAAACCGGUGGGAC (pool 0.208) the result was inoculated region 0.0491 / 0.0643 / 0.0190; leaf margin 0 / 0 / 0; systemic leaves 0 / 0 / 0.0228. With GGAAACCGUGUCCAC (pool 0.240) the assay gave inoculated region 0.0983 / 0.0643 / 0.0762; leaf margin 0.0323 / 0.0223 / 0; systemic leaves 0 / 0 / 0. With GGAAACCGAAUCAUC (pool 0.224) the assay gave inoculated region 0.213 / 0.241 / 0.267; leaf margin 0 / 0.0223 / 0.0401; systemic leaves 0 / 0 / 0. GGAAACCGAGAUCGC (pool 0.160) gave inoculated region 0.246 / 0.0321 / 0.0381; leaf margin 0 / 0 / 0; systemic leaves 0 / 0 / 0. GGAAACCGAAGAGUC (pool 0.336) gave inoculated region 0.213 / 0.321 / 0.190; leaf margin 0.0162 / 0.0223 / 0.0200; systemic leaves 0 / 0 / 0.

GGAAACCGUCAAGAC (pool 0.224) read inoculated region 0.0164 / 0.0803 / 0.0381; leaf margin 0.0162 / 0 / 0.0200; systemic leaves 0 / 0 / 0. With GGAAACCGACACUAC (pool 0.192) the assay gave inoculated region 0.524 / 0.594 / 0.533; leaf margin 0.0323 / 0.0891 / 0.100; systemic leaves 0.0322 / 0.0908 / 0.0684. With GGAAACCGGCCAAUC (pool 0.192) the assay gave inoculated region 0.0164 / 0.145 / 0.0762; leaf margin 0.0323 / 0 / 0; systemic leaves 0 / 0 / 0. GGAAACCGUAUAUGC (pool 0.256) gave inoculated region 0.0164 / 0.112 / 0.133; leaf margin 0.0162 / 0 / 0; systemic leaves 0 / 0 / 0. GGAAACCGUUUCUCC (pool 0.288) gave inoculated region 0.115 / 0.0482 / 0.0571; leaf margin 0.0162 / 0.0223 / 0.0200; systemic leaves 0 / 0 / 0.

For GGAAACCGACCUGCC (pool 0.256) the result was inoculated region 0.115 / 0.0964 / 0.133; leaf margin 0.0162 / 0 / 0; systemic leaves 0 / 0 / 0. GGAAACCGAAGGCGC (pool 0.176) read inoculated region 0.115 / 0.209 / 0.133; leaf margin 0 / 0 / 0; systemic leaves 0 / 0 / 0. With GGAAACCGUUUGCAC (pool 0.240) the assay gave inoculated region 0.164 / 0.0482 / 0.152; leaf margin 0 / 0 / 0.0200; systemic leaves 0 / 0 / 0. GGAAACCGGUGGAAC (pool 0.176) read inoculated region 0.0819 / 0.0482 / 0.0571; leaf margin 0 / 0.0223 / 0; systemic leaves 0 / 0 / 0. For GGAAACCGAACAUCC (pool 0.128) the result was inoculated region 0.0819 / 0.0482 / 0.114; leaf margin 0.0162 / 0 / 0; systemic leaves 0 / 0 / 0.

GGAAACCGCCUCCAC (pool 0.288) gave inoculated region 0.147 / 0.0643 / 0.0571; leaf margin 0.0162 / 0.0223 / 0.0200; systemic leaves 0 / 0 / 0. With GGAAACCGAUUACUC (pool 0.176) the assay gave inoculated region 0.147 / 0.0964 / 0.171; leaf margin 0 / 0 / 0.0601; systemic leaves 0 / 0 / 0.

A selection of 3 entries from above:

{"sequence": "GGAAACCGAAGGCGC", "pool": "0.176", "inoculated region": "0.115 / 0.209 / 0.133", "leaf margin": "0 / 0 / 0", "systemic leaves": "0 / 0 / 0"}
{"sequence": "GGAAACCGGGAGGUC", "pool": "0.240", "inoculated region": "0.0819 / 0.145 / 0.0571", "leaf margin": "0 / 0.0223 / 0", "systemic leaves": "0 / 0 / 0"}
{"sequence": "GGAAACCGGUGGAAC", "pool": "0.176", "inoculated region": "0.0819 / 0.0482 / 0.0571", "leaf margin": "0 / 0.0223 / 0", "systemic leaves": "0 / 0 / 0"}

With 43,870-66,106 reads a sample, very low values are single reads. Sequences that differ at fixed positions probably stem from PCR or sequencing errors, and defective variants can be carried along by functional ones.

Reference: Wu et al. 2024, doi:10.1371/journal.ppat.1012142.